Percent effect of library compounds

Mtb cholesterol medium: 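Whole-cell growth test on Mycobacterium tuberculosis, read after 4 days in a medium based on cholesterol and the lipid DPPC; the read-out is not stated. Concentration: 500 µM. The record gives no direction; compounds that gave an IC50 in retests scored well above the rest, so higher reads as more growth inhibition. Of about 18,000 compounds tested this way, about 900 (5%) reached 50% or more in at least one test.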
Mtb glucose medium: 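Whole-cell growth test on Mycobacterium tuberculosis, read after 3 days in glucose-containing 7H9 medium; the read-out is not stated. Compounds at 500 µM. The record gives no direction; compounds that gave an IC50 in retests scored well above the rest, so higher reads as more growth inhibition. About 18,000 compounds were tested under these conditions; 7.9% (about 1,400) showed 50% or more at least once.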

The filed quantity is “Percent Effect” (%). How 0% and 100% were set is not recorded. Most values in the screen are low, and negative values occur. This is part of a subset picked to be rich in strong results. A dash means the value is not listed here; it may have been measured.

Result for CS(=O)(=O)NCCNc1nc2ccccc2s1 was Mtb glucose medium: 24.5%. For CCC1C(=O)NCCN1C(=O)c1cnsn1 (stereo not given) the result was Mtb glucose medium: -14.03%. With O=C1CC(O)C(=O)N1C1CCCCC1 (stereo not given) the screen gave Mtb cholesterol medium: -1.23%. For O=c1c2cccc(F)c2ncn1CCOCCO the result was Mtb cholesterol medium: -9.714%. Result for COCCNC(=O)CN(C)c1ccc(Br)cc1C#N was Mtb glucose medium: -2.626%. Nc1cnn(Cc2ccccn2)c1 gave Mtb cholesterol medium: 51.7%; Mtb glucose medium: 50.97%.

Result for COCc1noc(CN2CCNCC2)n1 was Mtb cholesterol medium: 5.611%. CC(C)NC(=O)NCC12CCCC=C1NC(=O)CC2 (stereo not given) gave Mtb glucose medium: -7.496%. Nc1cn(-c2ccccc2C(F)(F)F)nn1 gave Mtb cholesterol medium: 18.16%. For CCCN1CCC(NCCc2ccccn2)CC1 the result was Mtb glucose medium: -6.818%. CCn1nccc1CN1CCOCC2(CCOCC2)C1 read Mtb glucose medium: 15.08%. Result for CCC(CC)C(O)CNC(=O)Cn1cnnn1 (stereo not given) was Mtb cholesterol medium: -19.89%; Mtb glucose medium: -7.512%.

COCC(C)Nc1cccc(CS(C)(=O)=O)c1 (stereo not given) gave Mtb cholesterol medium: 0.4683%. CCOc1ncnc2c1CN(CCOC)CC2 gave Mtb glucose medium: -9.016%. With CC1(C)CC(n2cccn2)C(C)(C)O1 (stereo not given) the screen gave Mtb glucose medium: -1.773%. Result for NC(=O)C1CCN(C2=NS(=O)(=O)c3ccccc32)CC1 was Mtb glucose medium: 5.775%. CCCNc1nnc(SCC(C)(C)O)s1 read Mtb cholesterol medium: 75.39%; Mtb glucose medium: 69.66%. CC(C)c1cc(N)n(C(C)C)n1 gave Mtb glucose medium: 12.64%.

For CCSCC(=O)NCCCc1csc(N)n1 the result was Mtb glucose medium: 2.417%. For Cc1ccc(CNC(CN2CCOCC2)C(C)C)nc1 (stereo not given) the result was Mtb cholesterol medium: 8.155%. Result for NC(=O)CCN1CCC(CN2CCCC2)CC1 was Mtb glucose medium: 19.98%. For COCCC1(C(=O)NCc2cc(Cl)ccn2)CC1 the result was Mtb glucose medium: 19.54%. C[C@@H](O)CNCc1cnn(-c2ccc(F)cc2)c1 gave Mtb cholesterol medium: 20.24%; Mtb glucose medium: 31.78%. NC(=O)NCC1CCCCN1 (stereo not given) gave Mtb cholesterol medium: 11.84%.

For Cc1cc(S(N)(=O)=O)ccc1CN the result was Mtb glucose medium: 6.896%. Result for Cc1cccc(CC(=O)NCC2CCNCC2)c1 was Mtb cholesterol medium: 18.28%; Mtb glucose medium: 1.16%. For COc1ccccc1CNC(=O)CC1CCS(=O)(=O)C1 (stereo not given) the result was Mtb glucose medium: 10.23%. Cc1[nH]cnc1CN1CCC(Oc2ncccn2)CC1 gave Mtb glucose medium: 21.83%. With CCOCc1nnc(NCc2nc(C)cs2)o1 the screen gave Mtb glucose medium: -4.023%. CC(O)CCN(C)Cc1cscn1 (stereo not given) read Mtb cholesterol medium: 4.229%.

The last 2 entries again:

| SMILES | Mtb cholesterol medium | Mtb glucose medium |
|---|---|---|
| `CCOCc1nnc(NCc2nc(C)cs2)o1` | - | -4.023 |
| `CC(O)CCN(C)Cc1cscn1` (stereo not given) | 4.229 | - |

The values are deposited in ChEMBL (CHEMBL3988442, “University of Dundee, Small-Polar-MMV Screening Library” (2021)).